We go through one compound from PubChem BioAssay AID588519 (ICCB-Longwood Screening Facility, Harvard Medical School, 2011).

Amino acid sequences for entries named in this document (tags omitted).
UniProt P03300, whole entry, looked up: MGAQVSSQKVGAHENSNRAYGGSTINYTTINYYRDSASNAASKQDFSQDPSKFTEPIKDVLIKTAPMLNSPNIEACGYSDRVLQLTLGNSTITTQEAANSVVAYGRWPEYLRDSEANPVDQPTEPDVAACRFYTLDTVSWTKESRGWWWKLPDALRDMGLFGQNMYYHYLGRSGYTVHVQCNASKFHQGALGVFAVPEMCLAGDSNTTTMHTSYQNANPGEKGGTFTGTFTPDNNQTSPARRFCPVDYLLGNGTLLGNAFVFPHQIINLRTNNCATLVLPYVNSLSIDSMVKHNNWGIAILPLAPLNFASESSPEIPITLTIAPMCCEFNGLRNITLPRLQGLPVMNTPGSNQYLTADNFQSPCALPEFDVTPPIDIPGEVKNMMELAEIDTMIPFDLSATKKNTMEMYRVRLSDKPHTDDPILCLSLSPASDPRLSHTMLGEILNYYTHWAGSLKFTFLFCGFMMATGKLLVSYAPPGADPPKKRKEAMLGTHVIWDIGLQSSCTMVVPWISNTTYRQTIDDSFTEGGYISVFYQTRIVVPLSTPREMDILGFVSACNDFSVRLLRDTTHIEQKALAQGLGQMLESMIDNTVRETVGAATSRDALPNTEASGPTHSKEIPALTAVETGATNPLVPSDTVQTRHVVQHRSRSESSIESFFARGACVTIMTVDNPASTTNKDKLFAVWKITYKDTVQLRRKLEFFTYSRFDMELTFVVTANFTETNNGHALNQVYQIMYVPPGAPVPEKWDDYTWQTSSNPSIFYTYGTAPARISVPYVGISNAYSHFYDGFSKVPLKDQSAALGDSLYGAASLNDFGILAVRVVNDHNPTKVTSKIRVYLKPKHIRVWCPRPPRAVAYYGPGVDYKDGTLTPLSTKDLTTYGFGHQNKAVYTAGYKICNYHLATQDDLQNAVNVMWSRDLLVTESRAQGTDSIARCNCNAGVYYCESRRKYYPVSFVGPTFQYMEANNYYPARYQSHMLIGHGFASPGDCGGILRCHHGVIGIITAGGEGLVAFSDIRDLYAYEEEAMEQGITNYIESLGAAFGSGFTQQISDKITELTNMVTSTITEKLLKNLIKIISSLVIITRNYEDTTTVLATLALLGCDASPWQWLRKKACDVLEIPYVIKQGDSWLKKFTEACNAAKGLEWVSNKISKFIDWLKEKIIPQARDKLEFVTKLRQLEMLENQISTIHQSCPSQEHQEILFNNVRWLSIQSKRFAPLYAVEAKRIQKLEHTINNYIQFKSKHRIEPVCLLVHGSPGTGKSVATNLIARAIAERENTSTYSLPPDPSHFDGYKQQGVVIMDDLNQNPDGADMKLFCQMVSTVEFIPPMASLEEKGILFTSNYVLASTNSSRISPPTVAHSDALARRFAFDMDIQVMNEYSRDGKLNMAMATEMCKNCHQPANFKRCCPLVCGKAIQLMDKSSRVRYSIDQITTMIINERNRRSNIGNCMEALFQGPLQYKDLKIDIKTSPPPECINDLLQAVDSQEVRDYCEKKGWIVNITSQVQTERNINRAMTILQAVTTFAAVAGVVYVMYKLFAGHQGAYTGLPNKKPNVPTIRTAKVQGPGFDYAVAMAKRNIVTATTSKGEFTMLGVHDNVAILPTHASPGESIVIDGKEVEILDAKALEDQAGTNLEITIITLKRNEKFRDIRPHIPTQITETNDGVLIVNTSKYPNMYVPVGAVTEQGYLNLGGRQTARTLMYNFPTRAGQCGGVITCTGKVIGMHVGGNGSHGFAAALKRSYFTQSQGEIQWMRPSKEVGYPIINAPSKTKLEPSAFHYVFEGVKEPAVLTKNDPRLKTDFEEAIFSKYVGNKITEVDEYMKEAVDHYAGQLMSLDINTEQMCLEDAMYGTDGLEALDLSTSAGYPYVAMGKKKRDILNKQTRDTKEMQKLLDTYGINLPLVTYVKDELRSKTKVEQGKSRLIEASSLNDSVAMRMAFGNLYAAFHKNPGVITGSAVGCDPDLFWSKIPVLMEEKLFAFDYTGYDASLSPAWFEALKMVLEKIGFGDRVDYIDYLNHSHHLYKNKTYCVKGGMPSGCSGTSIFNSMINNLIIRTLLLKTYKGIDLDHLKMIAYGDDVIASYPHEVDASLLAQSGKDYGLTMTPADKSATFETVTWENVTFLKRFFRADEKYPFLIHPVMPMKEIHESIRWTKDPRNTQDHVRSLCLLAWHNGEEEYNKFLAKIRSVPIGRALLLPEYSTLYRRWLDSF

Only a part is listed here, and it is no random draw. Active and inactive are the calls of the source. Cut-off read from the data, not from the text of the source: active = % elongation below about 90%; inactive = the rest, inconclusive results apart.

The target in the assay is Genome polyprotein (Poliovirus type 1 (strain Mahoney)) (UniProt P03300). Description: poliovirus RdRp elongation inhibitors, primary screen, biochemical, fluorescence polarization, total intensity (AID 588519). To be noted: poliovirus polymerase elongation, hits give low values, compound at 16.7 µg/mL. A general note: Polarisation of emitted light reports the rotation of a fluorescent probe.
In the case of `CCc1nc2c(n1)c1c(non1O)c1c2no[n+]1[O-]`, the % elongation was active: 79%.
